Source: PubChem BioAssay AID1259414 (Drosophila RNAi Screening Center, 2018)

- Screen: 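Fly genes that alter Wolbachia amount inside host cells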 (primary screen)
- System: Drosophila JW18 cells infected with Wolbachia
- Reagents: long dsRNA against Drosophila genes, 0.25 µg dsRNA per well of a 384-well plate
- Time to read-out: 5 days
- Treatment: cells persistently infected with Wolbachia before knock-down; no added drug
- Measurement: 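Automated imaging of bacterial rRNA staining divided by host cell count, reported as plate-normalised robust z-score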
- Reading the numbers: Wolbachia per cell robust z: higher = more Wolbachia per host cell than the plate typical
- Rule for the call: 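Active if absolute robust z reaches 1.5 in two or more of three replicates, leaving out multi- or no-target dsRNAs, genes unexpressed in JW18 and A1 wells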
The screen tested about 24,000 reagents; this is a random part of those with a known target gene and a result. In the full data, about 1,210 (5%) are marked active. 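Inactive calls also include excluded dsRNAs with several or no targets, genes unexpressed in JW18, and well A1, regardless of score.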

How did the screen score CG32219 [DRSC09641]?
Wolbachia per cell robust z, rep 1: -0.444; Wolbachia per cell robust z, rep 2: -0.22; Wolbachia per cell robust z, rep 3: -0.873; Outcome: inactive

With Orc1 (Origin recognition complex subunit 1) [DRSC07496], how do the results read?
Wolbachia per cell robust z, rep 1: 1.63; Wolbachia per cell robust z, rep 2: -1.53; Wolbachia per cell robust z, rep 3: 1.13; Outcome: inactive

For Orc1 (Origin recognition complex subunit 1) [DRSC41424], what does the deposit list?
Wolbachia per cell robust z, rep 1: -0.67; Wolbachia per cell robust z, rep 2: 0.107; Wolbachia per cell robust z, rep 3: 0.666; Outcome: inactive

How did the screen score Ubqn (Ubiquilin) [DRSC19581]?
Wolbachia per cell robust z, rep 1: -3.9; Wolbachia per cell robust z, rep 2: 1.81; Wolbachia per cell robust z, rep 3: -0.193; Outcome: inactive

How did the screen score Ubqn (Ubiquilin) [DRSC24055]?
Wolbachia per cell robust z, rep 1: 0.968; Wolbachia per cell robust z, rep 2: 1.11; Wolbachia per cell robust z, rep 3: 0.299; Outcome: inactive

What did the screen give for CG8176 [DRSC16394]?
Wolbachia per cell robust z, rep 1: 0.386; Wolbachia per cell robust z, rep 2: 0.279; Wolbachia per cell robust z, rep 3: -3.94; Outcome: inactive

For Opa1 (Optic atrophy 1) [DRSC07191], how do the results read?
Wolbachia per cell robust z, rep 1: -2.13; Wolbachia per cell robust z, rep 2: -0.406; Wolbachia per cell robust z, rep 3: -1.61; Outcome: active

How did the screen score Opa1 (Optic atrophy 1) [DRSC28908]?
Wolbachia per cell robust z, rep 1: 0.135; Wolbachia per cell robust z, rep 2: -0.754; Wolbachia per cell robust z, rep 3: 1.1; Outcome: inactive

With Npc2b (Niemann-Pick type C-2b) [DRSC15464], how do the results read?
Wolbachia per cell robust z, rep 1: 1.22; Wolbachia per cell robust z, rep 2: 0.918; Wolbachia per cell robust z, rep 3: 0.76; Outcome: inactive

With Cyp6d5 (Cytochrome P450 6d5) [DRSC16634], how do the results read?
Wolbachia per cell robust z, rep 1: 1.6; Wolbachia per cell robust z, rep 2: -0.335; Wolbachia per cell robust z, rep 3: 0.376; Outcome: inactive

What did the screen give for Cyp6d5 (Cytochrome P450 6d5) [DRSC29717]?
Wolbachia per cell robust z, rep 1: -2.07; Wolbachia per cell robust z, rep 2: 0.99; Wolbachia per cell robust z, rep 3: 0.352; Outcome: inactive

With Wdr24 (WD repeat domain 24) [DRSC14151], what was measured?
Wolbachia per cell robust z, rep 1: 0.304; Wolbachia per cell robust z, rep 2: -0.104; Wolbachia per cell robust z, rep 3: -1.74; Outcome: inactive

Entries above marked active, once more:
Opa1 (Optic atrophy 1) [DRSC07191] | Wolbachia per cell robust z, rep 1 = -2.13; Wolbachia per cell robust z, rep 2 = -0.406; Wolbachia per cell robust z, rep 3 = -1.61; Outcome = active

Continued:
How did the screen score T3dh (Type III alcohol dehydrogenase) [DRSC28231]?
Wolbachia per cell robust z, rep 1: 1.52; Wolbachia per cell robust z, rep 2: 1.05; Wolbachia per cell robust z, rep 3: 0.407; Outcome: inactive

What did the screen give for Bre1 [DRSC09742]?
Wolbachia per cell robust z, rep 1: 1.06; Wolbachia per cell robust z, rep 2: 1.15; Wolbachia per cell robust z, rep 3: 0.702; Outcome: inactive

Which result is listed for Stat92E [DRSC16870]?
Wolbachia per cell robust z, rep 1: 1.99; Wolbachia per cell robust z, rep 2: 2.38; Wolbachia per cell robust z, rep 3: 0.604; Outcome: active

Which result is listed for Stat92E [DRSC37655]?
Wolbachia per cell robust z, rep 1: 1.26; Wolbachia per cell robust z, rep 2: 0.0792; Wolbachia per cell robust z, rep 3: 2.16; Outcome: inactive

What is on record for Dscam3 (Down syndrome cell adhesion molecule 3) [DRSC14525]?
Wolbachia per cell robust z, rep 1: 0.807; Wolbachia per cell robust z, rep 2: 1.22; Wolbachia per cell robust z, rep 3: 0.482; Outcome: inactive

Which result is listed for Dscam3 (Down syndrome cell adhesion molecule 3) [DRSC16376]?
Wolbachia per cell robust z, rep 1: -0.801; Wolbachia per cell robust z, rep 2: 1.08; Wolbachia per cell robust z, rep 3: 0.662; Outcome: inactive

Which result is listed for CG31288 [DRSC14667]?
Wolbachia per cell robust z, rep 1: -1.83; Wolbachia per cell robust z, rep 2: 0.952; Wolbachia per cell robust z, rep 3: -4; Outcome: active

How did the screen score CG31288 [DRSC27373]?
Wolbachia per cell robust z, rep 1: -0.054; Wolbachia per cell robust z, rep 2: -0.686; Wolbachia per cell robust z, rep 3: -0.296; Outcome: inactive

How did the screen score CG7366 [DRSC10825]?
Wolbachia per cell robust z, rep 1: -0.951; Wolbachia per cell robust z, rep 2: 1.01; Wolbachia per cell robust z, rep 3: 0.88; Outcome: inactive

What did the screen give for CG7366 [DRSC29988]?
Wolbachia per cell robust z, rep 1: 0.0119; Wolbachia per cell robust z, rep 2: 1.05; Wolbachia per cell robust z, rep 3: -0.461; Outcome: inactive

What did the screen give for Mst57Dc (Male-specific transcript 57Dc) [DRSC16745]?
Wolbachia per cell robust z, rep 1: -0.00809; Wolbachia per cell robust z, rep 2: -2.39; Wolbachia per cell robust z, rep 3: 0.427; Outcome: inactive

How did the screen score CG13955 [DRSC06443]?
Wolbachia per cell robust z, rep 1: 1.47; Wolbachia per cell robust z, rep 2: 1.74; Wolbachia per cell robust z, rep 3: 1.21; Outcome: inactive
